Compound potency records, mixed from different reports. Data source: NIAID ChemDB in PubChem.

Shared fields: toxicity to cultured cells; cells: C8166; read-out: CC50

CCn is the concentration with n% toxicity to the cells. Rows are shuffled and stem from different studies. An empty or dashed field is not shown.

SMILES,method,value
C/C(=C/[C@H]1C[C@](C)(O)C2[C@@H](C[C@@]3(C)[C@@H]4CC=C5[C@@H](C[C@H](O)[C@@H](O)C5(C)C)[C@]4(C)C(=O)C[C@]23C)O1)CO,MTT,444.9 µM
CO[C@H]1C[C@H](n2cc(C)c(=O)[nH]c2=O)O[C@@H]1COP(=O)(OC[C@H]1O[C@@H](n2cc(C)c(=O)[nH]c2=O)C[C@@H]1OC)Oc1ccccc1,-,>500 µM
Cc1cc(C)cc(Sc2c(C(=O)NCCO)[nH]c3ccc(Cl)cc23)c1,MTT,>100 µM
C=C(C)[C@@]1(OC(=O)c2ccccc2)[C@H](OC(C)=O)[C@@H]2[C@H](OC(C)=O)[C@@]3(C)O[C@@]4([C@@H]3OC(C)=O)[C@@H](OC(C)=O)[C@@H](C)C[C@H]4[C@@]2(O)[C@H](C)[C@@H]1OC(C)=O,MTT,117 µg/mL
CC1=C[C@H]2[C@@]3(O)[C@H](C)[C@@H](OC(=O)CCc4ccccc4)[C@]4(OC(=O)CCc5ccccc5)[C@H]([C@@H]3C=C(CO)C[C@]2(O)C1=O)C4(C)C,MTT,26.34 µM
Cc1cn([C@H]2C[C@H](N=[N+]=[N-])[C@@H](COP(=O)(N[C@@H](C)C(=O)OC3CCCCC3)Oc3ccccc3)O2)c(=O)[nH]c1=O,-,>100 µM
CC1(C)Oc2cc(O)c3c(=O)cc(-c4ccc(O)cc4)oc3c2C(O)C1O,MTT,387.1 µM
CC(=O)O[C@H]1C[C@H](n2cc(C)c(=O)[nH]c2=O)O[C@@H]1COP(=O)(OCC(Cl)Cl)OC[C@H]1O[C@@H](n2cc(C)c(=O)[nH]c2=O)C[C@@H]1OC(C)=O,-,1000 µM
CCCCCCCC/C=C\CCCCCCCCOP(=O)([O-])OCC[NH2+]C,-,>100 µM
CNc1cc(Cl)nc2c1ncn2[C@H]1CC[C@@H](CO)O1,-,800 µM
COc1ccc([C@]2(OC)O[C@@H](c3cc(OC)c(OC)c(OC)c3)[C@@]3(C)O[C@@]23C)cc1OC,MTT,106 µg/mL
CC(C)=CCC/C(C)=C/CC/C(C)=C/CC/C(C)=C/Cc1cc(O)cc2c1OC(=O)C2,MTT,12.13 µM
COc1cc([C@@H]2c3cc(OC)c(OC)cc3C[C@@H](C)[C@H]2C)ccc1O,MTT,30 µM
OC[C@@H]1CC[C@H](n2cnc3c(NC4CCCCCC4)cc(Cl)nc32)O1,-,9 µM
O=S(=O)(Oc1ccc(N=Nc2ccc(N=Nc3ccc(OS(=O)(=O)c4ccccc4)c4ncccc34)cc2)c2cccnc12)c1ccccc1,MTT,47.56 µg/mL
O=C(NNCCO)c1[nH]c2ccc(Cl)cc2c1Sc1ccccc1,MTT,>100 µM
Cc1cn([C@H]2C[C@H](N=[N+]=[N-])[C@@H](COP(=O)(N[C@@H](C)C(=O)OC(C)(C)C)OCC(Cl)(Cl)Cl)O2)c(=O)[nH]c1=O,-,>100 µM
CC1=C[C@H]2[C@@]3(O)[C@H](C)[C@@H](OC(=O)CCCCCBr)[C@]4(OC(=O)CCCCCBr)[C@H]([C@@H]3C=C(CO)C[C@]2(O)C1=O)C4(C)C,MTT,22.2 µM
O=C(NCCO)c1[nH]c2ccc(Cl)cc2c1S(=O)(=O)c1ccccc1,MTT,>100 µM
CC(=O)OCC1=C[C@H]2[C@@H]3C(C)(C)[C@]3(O)[C@H](OC(=O)/C=C/c3ccccc3)[C@@H](C)[C@]2(O)[C@@H]2C=C(C)C(=O)[C@@]2(O)C1,MTT,108 µM
OC[C@@H]1CC[C@H](n2cnc3c(NC4CC4)cc(Cl)nc32)O1,-,400 µM
CCCCCCOP(=O)([O-])OCC[NH2+]C,-,>100 µM
Cc1cc(C)cc(S(=O)(=O)c2c(C(=O)NCCO)[nH]c3ccc(Cl)cc23)c1,MTT,>100 µM
COC(=O)C(C)OP(=O)(OC)OC[C@H]1O[C@@H](n2cc(C)c(=O)[nH]c2=O)C[C@@H]1N=[N+]=[N-],-,>100 µM
CC(=O)O[C@H]1[C@H](OC(C)=O)[C@]2(C)O[C@@]3(COC(=O)C3)[C@@H](OC(=O)c3ccccc3)C[C@]2(C)[C@H]2CCC[C@]3(CO3)[C@]12C,MTT,>200 µg/mL
CC(=O)O[C@@H]1C[C@@]2(C)C3CC=C4[C@@H](C[C@H](O)[C@@H](O)C4(C)C)[C@]3(C)C(=O)C[C@]2(C)C1C(C)(O)C(=O)/C=C/C(C)(C)OC(C)=O,MTT,232.5 µM
CC1(C)C=Cc2c(cc(O)c3c2O[C@H](c2ccc(O)cc2)CC3=O)O1,MTT,210.8 µM
Cc1ccc(S(=O)(=O)c2c(C(=O)NNCCO)[nH]c3ccc(Cl)cc23)cc1,MTT,>100 µM
CC1=C[C@H]2[C@@]3(O)[C@H](C)[C@@H](OC(=O)/C=C/c4ccccc4)[C@]4(O)[C@H]([C@@H]3C=C(CO)C[C@]2(O)C1=O)C4(C)C,MTT,114 µM
COc1cc(OC)c2oc(=O)ccc2c1,MTT,>970.9 µM
C=C(C)[C@@H]1CC[C@]2(C(=O)NCCCCCCCC(=O)N[C@@H](CC(C)C)[C@@H](O)CC(=O)O)CC[C@]3(C)[C@H](CC[C@@H]4[C@@]5(C)CC[C@H](O)C(C)(C)[C@@H]5CC[C@]43C)[C@@H]12,-,>2.7 µM
CC(=O)O[C@H]1C[C@H](n2cc(C)c(=O)[nH]c2=O)O[C@@H]1COP(=O)(OC[C@H]1O[C@@H](n2cc(C)c(=O)[nH]c2=O)C[C@@H]1OC(C)=O)OCC(F)(F)F,-,>1000 µM
CC(C)C[C@H]1NC(=O)C(Cc2c[nH]c3c(C45C[C@H]6C(=O)N[C@H](Cc7ccccc7)C(=O)N6[C@H]4Nc4ccccc45)cccc23)NC1=O,-,>100 µM
CCc1ccc(S(=O)(=O)Oc2ccc(N=Nc3ccc(N=Nc4ccc(OS(=O)(=O)c5ccc(CC)cc5)c5ncccc45)cc3)c3cccnc23)cc1,MTT,82.29 µg/mL
CCCCCCOC(=O)[C@H](C)NP(=O)(OC[C@H]1O[C@@H](n2cc(C)c(=O)[nH]c2=O)C[C@@H]1N=[N+]=[N-])Oc1ccccc1,-,>100 µM
O=C(NNCCO)c1[nH]c2ccc(Cl)cc2c1S(=O)(=O)c1ccccc1,MTT,>100 µM
Cc1cn([C@H]2C[C@H](N=[N+]=[N-])[C@@H](COP(=O)(OC[C@H]3O[C@@H](n4cc(C)c(=O)[nH]c4=O)C[C@@H]3N=[N+]=[N-])OCC(F)(F)F)O2)c(=O)[nH]c1=O,-,600 µM
CC1(C)C=C2[C@H]3CC[C@@H]4[C@@]5(C)CCC(=O)C(C)(C)[C@@H]5CC[C@@]4(C)[C@]3(C)CC[C@@]2(C(=O)O)CC1,MTT,61.61 µM
CC(CCC=C(CO)CO)C1CC[C@@]2(C)[C@@H]3CC=C4[C@@H](CCC(O)C4(C)C)[C@]3(C)C(O)C[C@]12C,MTT,403.8 µM
C=C(C)[C@@]12OC3(C)O[C@@H]1[C@@H]1[C@H](O)[C@@](C)(O)[C@@H](O)[C@@]4(O)[C@@H](C=C(C)[C@@H]4OC(C)=O)[C@@]1(O3)[C@H](C)[C@@H]2OC(=O)c1ccccc1,MTT,56.5 µg/mL
CO[C@H]1C[C@H](n2cc(C)c(=O)[nH]c2=O)O[C@@H]1CO,-,500 µM
CC(=O)O[C@@H]1CC[C@]2(CO2)[C@]2(C)[C@@H](OC(C)=O)[C@H](OC(C)=O)[C@]3(C)O[C@]4(COC(=O)C4)[C@@H](OC(=O)c4ccccc4)C[C@]3(C)[C@@H]12,MTT,>200 µg/mL
CC1(C)C=C2C3CCC4[C@@]5(C)CCC(=O)C(C)(C)C5[C@H](O)C[C@@]4(C)[C@]3(C)CC[C@@]2(C(=O)O)CC1,MTT,62.09 µM
O=c1cc(-c2cccc3c2Sc2ccccc2S3)oc(N2CCOCC2)c1,-,>30 µM
CCCCCCCCCCCCOP(=O)(OCC(=O)OCC)OC[C@H]1O[C@@H](n2cc(C)c(=O)[nH]c2=O)C[C@@H]1N=[N+]=[N-],-,75 µM
CC(C)=CCOc1cc(O)c2ccc(=O)oc2c1,MTT,813 µM
CC(=O)O[C@H]1C[C@]2(C)[C@H]3[C@H](OC(C)=O)CC[C@]4(CO4)[C@]3(C)[C@@H](OC(C)=O)[C@H](OC(=O)c3ccccc3)[C@]2(C)O[C@]12COC(=O)C2,MTT,>200 µg/mL
CC(C)=CCC/C(C)=C/COc1ccc2ccc(=O)oc2c1,MTT,217.8 µM
Cc1ccc(Sc2c(C(=O)NCCO)[nH]c3ccc(Cl)cc23)cc1,MTT,>100 µM
O=S(=O)(Oc1ccc(N=Nc2ccc(N=Nc3ccc(OS(=O)(=O)c4ccc(Br)cc4)c4ncccc34)cc2)c2cccnc12)c1ccc(Br)cc1,MTT,102 µg/mL

Repeating the final 3 entries:

| SMILES | method | value |
|---|---|---|
| CC(C)=CCC/C(C)=C/COc1ccc2ccc(=O)oc2c1 | MTT | 217.8 µM |
| Cc1ccc(Sc2c(C(=O)NCCO)[nH]c3ccc(Cl)cc23)cc1 | MTT | >100 µM |
| O=S(=O)(Oc1ccc(N=Nc2ccc(N=Nc3ccc(OS(=O)(=O)c4ccc(Br)cc4)c4ncccc34)cc2)c2cccnc12)c1ccc(Br)cc1 | MTT | 102 µg/mL |